Test results published in paper PMC4586043, “Antibodies to a conformational epitope on gp41 neutralize HIV-1 by destabilizing the Env spike” (Nature Communications, 2015).

Experiments:
[1] = biological target: T1, His-tagged BG505 SOSIP.664 trimer produced in 293T cells (HIV-1 isolate BG505 (subtype A), stabilised); test: SPR; Biacore 3000, 25 °C, HBS-EP; His-tagged trimer captured by anti-histidine antibody on CM5 to 500 RU; 3BC315 IgG or Fab titrated down in twofold steps from 1 μM; IgG fitted with a bivalent, Fab with a Langmuir model; settings: both partners purified
T1 construct: source: HEK293T; not shown: His8, C-terminal, kept; copies: 3 + 3

[2] = biological target: T2, His-tagged BG505 SOSIP.664 trimer produced in 293F cells (HIV-1 isolate BG505 (subtype A), stabilised); test: as above; settings: both partners purified
T2 construct: gp120 of HIV-1 BG505 Env as in the SOSIP.664 gp140 design; copies: 3 + 3

[3] = biological target: T3, His-tagged BG505 SOSIP.664 trimer produced in 293S cells (HIV-1 isolate BG505 (subtype A), stabilised); test: as above; settings: both partners purified
T3 construct: gp120 of HIV-1 BG505 Env as in the SOSIP.664 gp140 design; copies: 3 + 3

BG505 SOSIP.SEKS = biological target: T4, BG505 SOSIP.SEKS (HIV-1 isolate BG505 (subtype A), UniProt Q2N0S6, stabilised); test: SPR; D7324-tagged BG505 Env forms captured by D7324 antibody on CM5 (500 RU; gp120 425 RU); 3BC315 injected at 500 nM; 25 °C, HBS-EP
T4 construct: uncleaved gp140 of HIV-1 BG505 Env with SOS, IP and the SEKS cleavage-site change; source: HEK293T

BG505 IP.SEKS = biological target: T5, BG505 IP.SEKS (HIV-1 isolate BG505 (clade A), UniProt Q2N0S6, stabilised); test: as above
T5 construct: uncleaved gp140 of HIV-1 BG505 Env with IP and the SEKS cleavage-site change, without SOS; source: HEK293T

BG505 SOS.SEKS = biological target: T6, BG505 SOS.SEKS (HIV-1 isolate BG505 (clade A), UniProt Q2N0S6, stabilised); test: as above
T6 construct: uncleaved gp140 of HIV-1 BG505 Env with SOS and the SEKS cleavage-site change, without IP; source: HEK293T

BG505 WT.SEKS = biological target: T7, BG505 WT.SEKS (HIV-1 isolate BG505 (clade A), UniProt Q2N0S6, stabilised); test: as above
T7 construct: uncleaved gp140 of HIV-1 BG505 Env with the SEKS cleavage-site change, without SOS and IP; source: HEK293T

Binder	Kd [1] [nM]	stoichiometry N [1]	Kd [2] [nM]	stoichiometry N [2]	Kd [3] [nM]	stoichiometry N [3]	binding result (BG505 SOSIP.SEKS)	binding result (BG505 IP.SEKS)	binding result (BG505 SOS.SEKS)	binding result (BG505 WT.SEKS)
3BC315 Fab (Fab, V domains shown) VH: QVQLVQSGAEMKDPGASVKVSCRASGYKFTDYYMHWVRQAPGQGLEWVGWVNTNGGFTKYGAKFQGRVTVTRDTSTNTVFLELSRLTFGDTAMYFCARPMRPVSHGIDYSGLFVFQFWGRGTMVTVSS VL: QSALTQPASVSASPGQSITISCSGTRSDVGGYDFVSWYQQHPGKVPKLIIYEVTKRPSGIPQRFSGSKSGNTASLTISGLQADDEADYYCCSYANYDKLILGGGTKLTVL	< 10	1.1	< 10	1.3	4.7	1.5				
3BC315 IgG (antibody, V domains shown) VH: QVQLVQSGAEMKDPGASVKVSCRASGYKFTDYYMHWVRQAPGQGLEWVGWVNTNGGFTKYGAKFQGRVTVTRDTSTNTVFLELSRLTFGDTAMYFCARPMRPVSHGIDYSGLFVFQFWGRGTMVTVSS VL: QSALTQPASVSASPGQSITISCSGTRSDVGGYDFVSWYQQHPGKVPKLIIYEVTKRPSGIPQRFSGSKSGNTASLTISGLQADDEADYYCCSYANYDKLILGGGTKLTVL							binds	binds	binds	binds
